{
  "sequences": {"note": "By UniProt entry, the sequences of proteins in these tests, tags left out. Where a name states a change or a piece, a line headed by the entry shows the natural chain unless it says otherwise. Residues count along the entry.", "UniProt P20782, 21-493 limits assumed": "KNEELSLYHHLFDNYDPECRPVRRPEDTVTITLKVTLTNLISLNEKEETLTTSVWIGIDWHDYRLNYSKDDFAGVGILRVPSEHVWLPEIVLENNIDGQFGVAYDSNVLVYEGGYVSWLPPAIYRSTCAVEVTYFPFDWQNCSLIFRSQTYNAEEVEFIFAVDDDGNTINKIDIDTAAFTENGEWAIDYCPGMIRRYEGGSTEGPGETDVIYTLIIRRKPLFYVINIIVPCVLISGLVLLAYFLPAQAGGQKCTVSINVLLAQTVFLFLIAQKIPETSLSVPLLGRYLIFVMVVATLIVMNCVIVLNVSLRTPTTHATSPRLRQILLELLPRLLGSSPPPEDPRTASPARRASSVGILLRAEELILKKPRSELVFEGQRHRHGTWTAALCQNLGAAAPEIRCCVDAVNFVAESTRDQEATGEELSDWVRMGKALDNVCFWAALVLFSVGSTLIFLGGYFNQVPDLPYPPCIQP", "UniProt P25108, 21-457 limits assumed": "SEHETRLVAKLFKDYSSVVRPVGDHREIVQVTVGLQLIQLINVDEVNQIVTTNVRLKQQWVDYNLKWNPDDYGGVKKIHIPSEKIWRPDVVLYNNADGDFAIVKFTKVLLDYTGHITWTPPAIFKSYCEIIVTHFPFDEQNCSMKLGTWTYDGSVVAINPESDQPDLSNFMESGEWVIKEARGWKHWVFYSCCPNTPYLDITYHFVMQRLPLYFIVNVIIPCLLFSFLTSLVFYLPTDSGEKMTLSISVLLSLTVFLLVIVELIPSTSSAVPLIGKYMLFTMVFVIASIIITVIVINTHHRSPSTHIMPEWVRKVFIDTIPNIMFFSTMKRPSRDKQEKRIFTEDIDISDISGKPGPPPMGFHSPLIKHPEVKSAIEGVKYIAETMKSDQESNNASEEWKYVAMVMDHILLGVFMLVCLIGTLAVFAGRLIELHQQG", "UniProt P25109, 24-501 limits assumed": "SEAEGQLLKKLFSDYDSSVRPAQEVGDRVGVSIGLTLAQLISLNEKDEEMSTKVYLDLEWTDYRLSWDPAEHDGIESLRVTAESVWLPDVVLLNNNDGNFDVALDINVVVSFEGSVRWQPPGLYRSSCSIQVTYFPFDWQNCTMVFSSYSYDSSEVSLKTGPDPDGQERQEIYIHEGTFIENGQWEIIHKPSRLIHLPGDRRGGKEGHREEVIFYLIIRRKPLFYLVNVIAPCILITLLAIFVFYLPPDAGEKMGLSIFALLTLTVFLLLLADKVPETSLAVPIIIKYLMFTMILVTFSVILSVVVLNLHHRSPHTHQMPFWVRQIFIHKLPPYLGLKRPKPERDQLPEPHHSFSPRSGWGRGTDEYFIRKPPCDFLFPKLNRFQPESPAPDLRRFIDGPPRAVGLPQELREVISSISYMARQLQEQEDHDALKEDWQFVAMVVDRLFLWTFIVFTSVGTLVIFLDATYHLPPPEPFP", "UniProt P25110, 22-517 limits assumed": "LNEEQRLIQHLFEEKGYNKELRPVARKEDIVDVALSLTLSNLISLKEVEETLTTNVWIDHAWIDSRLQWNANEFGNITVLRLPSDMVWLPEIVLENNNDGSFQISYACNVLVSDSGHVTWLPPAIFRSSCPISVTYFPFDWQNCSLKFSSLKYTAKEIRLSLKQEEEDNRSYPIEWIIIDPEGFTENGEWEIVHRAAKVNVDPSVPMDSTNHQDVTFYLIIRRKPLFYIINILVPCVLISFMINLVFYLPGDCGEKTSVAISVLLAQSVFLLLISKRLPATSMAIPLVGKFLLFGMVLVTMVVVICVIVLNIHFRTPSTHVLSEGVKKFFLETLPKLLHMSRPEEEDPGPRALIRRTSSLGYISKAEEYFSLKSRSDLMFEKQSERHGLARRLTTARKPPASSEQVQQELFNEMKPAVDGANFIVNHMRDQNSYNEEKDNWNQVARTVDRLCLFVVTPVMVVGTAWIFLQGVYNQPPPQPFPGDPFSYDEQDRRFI"},
  "source": "paper PMC5484114",
  "about": "(Marine Drugs, 2017)",
  "target": "rα1β1εδ nAChR (UniProt P20782+P25108+P25109+P25110)",
  "experiment": "Inhibition of ACh-evoked currents, two-electrode voltage clamp in Xenopus oocytes, rα1β1εδ",
  "conditions": "1 μM ACh",
  "data": [
    {"smiles": "CC(C)C[C@H](NC(=O)[C@H](CO)NC(=O)[C@@H]1CSSC[C@H](NC(=O)[C@@H]2CCCN2C(=O)[C@H](CCCNC(=N)N)NC(=O)[C@H](Cc2c[nH]cn2)NC(=O)[C@@H](NC(=O)[C@@H](N)CC(=O)O)C(C)C)C(=O)N[C@@H](CCC(N)=O)C(=O)N[C@@H](CO)C(=O)N[C@@H](C(C)C)C(=O)N[C@@H](CCCNC(=N)N)C(=O)N2CCC[C@H]2C(=O)NCC(=O)N[C@@H](CCCNC(=N)N)C(=O)N[C@@H](C(C)C)C(=O)N[C@@H](Cc2c[nH]c3ccccc23)C(=O)NCC(=O)N[C@@H](CCCCN)C(=O)N[C@H](C(=O)N[C@@H](CO)C(=O)N[C@@H](CC(C)C)C(=O)O)CSSC[C@H](NC(=O)[C@@H]2CCCN2C(=O)[C@H](CCCNC(=N)N)NC(=O)[C@H](Cc2c[nH]cn2)NC(=O)[C@@H](NC(=O)[C@@H](N)CC(=O)O)C(C)C)C(=O)N[C@@H](CCC(N)=O)C(=O)N[C@@H](CO)C(=O)N[C@@H](C(C)C)C(=O)N[C@@H](CCCNC(=N)N)C(=O)N2CCC[C@H]2C(=O)NCC(=O)N[C@@H](CCCNC(=N)N)C(=O)N[C@@H](C(C)C)C(=O)N[C@@H](Cc2c[nH]c3ccccc23)C(=O)NCC(=O)N[C@@H](CCCCN)C(=O)N1)C(=O)O", "note": "[NTD]", "values": [
      {"measurement": "Hill Slope (nH) at rα1β1εδ", "setting": "concentration–response curve", "result": "−1.1"}
    ]},
    {"smiles": "CC(C)[C@@H]1NC(=O)[C@H](CCCNC(=N)N)NC(=O)CNC(=O)[C@@H]2CCCN2C(=O)[C@H](CCCNC(=N)N)NC(=O)[C@H](C(C)C)NC(=O)[C@H](CO)NC(=O)[C@H](CCC(N)=O)NC(=O)[C@@H](N)CSSC[C@@H](C(=O)O)NC(=O)[C@H](CCCCN)NC(=O)CNC(=O)[C@H](Cc2c[nH]c3ccccc23)NC(=O)[C@H](C(C)C)NC(=O)[C@H](CCCNC(=N)N)NC(=O)CNC(=O)[C@@H]2CCCN2C(=O)[C@H](CCCNC(=N)N)NC(=O)[C@H](C(C)C)NC(=O)[C@H](CO)NC(=O)[C@H](CCC(N)=O)NC(=O)[C@@H]2CCCN2C(=O)CNC(=O)[C@@H]2CCCN2C(=O)[C@H](CCCCN)NC(=O)CNC(=O)[C@H](Cc2c[nH]c3ccccc23)NC1=O", "note": "[cNTD]", "values": [
      {"measurement": "IC50", "setting": "read-out: IC50 (95% CI) at rα1β1εδ, X. laevis oocytes, holding potential −80 mV, 5 min peptide incubation, ND96 pH 7.4 + 0.1% BSA, 95% CI NTD 4.71–7.34 (n = 5–8), cNTD 3.35–4.56 (n = 5–7)", "result": 3.91, "unit": "µM"}
    ]}
  ]
}
